A mixed list of measured activities; the numbers were collected in NIAID ChemDB.

Shared fields: target-level tests

Two numbers with a dash give a range or band. ICn: concentration for n% inhibition. Lines come from different laboratories, so protocols vary. Inhibition is in % at the dose shown (toxicity tests: loss of growth or viability). An empty or dashed field is not shown.

compound | measure | target | strain or isolate | organism | tested at | value
COc1nc(Nc2ccc3cn[nH]c3c2)nc(N2CCOCC2)n1 | inhibition | DNA polymerase |  | Hepatitis B virus | 0.1 µg/mL | 41%
C=CC1CC1(NC(=O)[C@@H]1C[C@@H](OC(=O)Nc2ccccc2OC)CN1C(=O)[C@@H](NC(=O)OC(C)(C)C)C(C)(C)C)C(=O)NS(=O)(=O)C1CC1 | IC50 | NS3/NS4A protease | BMS/H77C/J416S | Hepatitis C virus |  | <0.1 µM
COc1ccc(-c2ccc(Cl)cc2)c(-c2ccc3cc(-c4nc5cc(C(=O)O)ccc5n4C4CC4)ccc3n2)c1 | inhibition | NS5B polymerase |  | Hepatitis C virus | 33 µM | 100%
C=CC1CC1(NC(=O)[C@@H]1C[C@@H](OC(=O)N(C)C)CN1C(=O)[C@@H](NC(=O)OC(C)(C)C)C(C)(C)C)C(=O)NS(=O)(=O)C1CC1 | IC50 | NS3/NS4A protease | BMS/H77C/J416S | Hepatitis C virus |  | 0.1–1 µM
CN(C(=O)c1cc2ccccc2o1)c1cc(-c2ccccc2)sc1C(=O)O | IC50 | NS3 ATPase |  | Hepatitis C virus |  | >20 µM
C=CC1CC1(NC(=O)OC(C)(C)C)C(=O)N1C[C@H](Oc2cc(-c3ccccc3)nc3cc(OC)ccc23)C[C@H]1C(=O)N[C@]1(C(=O)NS(=O)(=O)C2CC2)C[C@H]1CC | IC50 | NS3/NS4A protease | BMS | Hepatitis C virus |  | <0.5 µM
COc1ccc2occ(-c3ccc4cc(-c5nc6cc(C(=O)O)ccc6n5C5CCCCC5)ccc4n3)c2c1 | inhibition | NS5B polymerase |  | Hepatitis C virus | 100 µM | 99.96%
C=C[C@@H]1C[C@]1(NC(=O)[C@@H]1C[C@@H](Oc2cc(-c3ccccc3)nc3cc(OC)ccc23)CN1C(=O)[C@@H](NC(=O)OC(C)(C)C)C1CCCC1)C(=O)NS(=O)(=O)C1CC1 | IC50 | NS3/NS4A protease | BMS | Hepatitis C virus |  | <0.05 µM
CC(=O)Nc1nc(C)c(S(=O)(=O)Nc2cc(-c3ccccc3)sc2C(=O)O)s1 | IC50 | NS3 ATPase |  | Hepatitis C virus |  | 5–20 µM
NC(C(=O)Nc1ccsc1-c1nc(C(=O)O)c(O)c(=O)[nH]1)c1ccc2ccccc2c1 | IC50 | HCV polymerase |  | Hepatitis C virus |  | <25 µM
COc1nc(Nc2ccc3cn[nH]c3c2)nc(N2CCN(C(=O)c3cccnc3)CC2)n1 | inhibition | DNA polymerase |  | Hepatitis B virus | 0.01 µg/mL | 10%
C=C[C@@H]1C[C@]1(NC(=O)[C@@H]1C[C@@H](Oc2cc(-c3ccccc3)nc3cc(OC)ccc23)CN1C(=O)[C@@H](NC(=O)OCCCC)C(C)(C)C)C(=O)NS(=O)(=O)C1CC1 | IC50 | NS3/NS4A protease | BMS | Hepatitis C virus |  | <0.05 µM
O=C(O)c1ccc2c(c1)nc(-c1ccc3nc(-c4ccc5c(c4)CCCC5)ccc3c1)n2C1CCCCC1 | inhibition | NS5B polymerase |  | Hepatitis C virus | 33 µM | 99.54%
Cn1nc(C(F)(F)F)cc1-c1ccc(S(=O)(=O)Nc2ccccc2-c2nc(C(=O)O)c(O)c(=O)[nH]2)s1 | IC50 | HCV polymerase |  | Hepatitis C virus |  | <100 µM
C=C[C@@H]1C[C@]1(NC(=O)[C@@H]1C[C@@H](Oc2cc(-c3ccccc3)nc3cc(OC)ccc23)CN1C(=O)[C@H](CC(C)C)NC(=O)OC(C)(C)C)C(=O)NS(=O)(=O)C(F)(F)F | IC50 | NS3/NS4A protease | BMS | Hepatitis C virus |  | <5 µM
CC[C@@H](C=O)NC(=O)[C@@H]1C[C@@H](OCc2cccc(Oc3ccccc3)c2)CN1C(=O)[C@@H](NC(=O)[C@@H](NC(=O)c1cnccn1)C(C)C)C(C)C | Ki | NS3 protease |  | Hepatitis C virus |  | 1–100 µM
CC(C)Cc1cc(N(Cc2ccc(Cl)cc2Cl)C(C)C)c(C(=O)O)s1 | IC50 | NS3 ATPase |  | Hepatitis C virus |  | <5 µM
CNC(=O)C1CCN(c2nc(Nc3ccc4[nH]ncc4c3)nc(OC)n2)CC1 | inhibition | Nonstructural protein 5B |  | Hepatitis C virus | 10 µg/mL | 45%
C=C[C@@H]1C[C@]1(NC(=O)[C@@H]1C[C@@H](Oc2cc(-c3ccccc3)nc3cc(OC)ccc23)CN1C(=O)[C@@H](NC(=O)OCCF)C(C)(C)C)C(=O)NS(=O)(=O)C1CC1 | IC50 | NS3/NS4A protease | BMS | Hepatitis C virus |  | <0.05 µM
C=CC1CC1(NC(=O)[C@@H]1C[C@@H](OC(=O)Nc2ccccc2C(=O)OC)CN1C(=O)[C@@H](NC(=O)OC(C)(C)C)C(C)(C)C)C(=O)NS(=O)(=O)C1CC1 | IC50 | NS3/NS4A protease | BMS/H77C/J416S | Hepatitis C virus |  | <0.1 µM
O=C(NCc1cccc([N+](=O)[O-])c1)Nc1ccccc1-c1nc(C(=O)O)c(O)c(=O)[nH]1 | IC50 | HCV polymerase |  | Hepatitis C virus |  | <100 µM
CCC[C@]1(CC(=O)O)OCCc2c1[nH]c1c(C)ccc(C#N)c21 | IC50 | NS5B polymerase | 167-A1 genotype 3A | Hepatitis C virus |  | 1.8 µM
CC[C@@H]1C[C@]1(NC(=O)[C@@H]1C[C@@H](Oc2cc(-c3ccccc3)nc3cc(OC)ccc23)CN1C(=O)[C@@H](NC(=O)OC(C)(C)C)C(C)C)C(=O)NS(C)(=O)=O | IC50 | NS3/NS4A protease | BMS | Hepatitis C virus |  | <0.5 µM
COc1ccccc1CCOC(=O)Nc1cscc1-c1nc(C(=O)O)c(O)c(=O)[nH]1 | IC50 | HCV polymerase |  | Hepatitis C virus |  | <25 µM
C=CC1CC1(NC(=O)[C@@H]1C[C@@H](OC(=O)N[C@H](C)c2cccc3ccccc23)CN1C(=O)[C@@H](NC(=O)OC(C)(C)C)C(C)(C)C)C(=O)O | IC50 | NS3/NS4A protease | BMS/H77C/J416S | Hepatitis C virus |  | >10 µM
CC[C@@H](C=O)NC(=O)[C@@H]1C[C@@H](OCc2ccccc2)CN1C(=O)[C@@H](NC(=O)[C@@H](NC(=O)c1cnccn1)C(C)C)C(C)C | Ki | NS3 protease |  | Hepatitis C virus |  | 1–100 µM
COc1nc(Nc2ccc3cn[nH]c3c2)nc(N2CCC(O)CC2)n1 | inhibition | DNA polymerase |  | Hepatitis B virus | 0.1 µg/mL | 37%
CC[C@@H](C=O)NC(=O)[C@@H]1C[C@@H](OCc2ccccc2)CN1C(=O)[C@@H](NC(=O)C(F)c1ccccc1)C(C)C | Ki | NS3 protease |  | Hepatitis C virus |  | >100 µM
C=CC1CC1(NC(=O)[C@@H]1C[C@@H](Oc2cc(-c3ccccc3)nc3cc(OC)ccc23)CN1C(=O)[C@@H](NC(=O)OC(C)(C)C)C(C)C)C(=O)NS(C)(=O)=O | IC50 | NS3/NS4A protease | BMS | Hepatitis C virus |  | <0.5 µM
C=CC1CC1(NC(=O)[C@@H]1C[C@@H](OC(=O)Nc2ccccc2-c2ccccc2)CN1C(=O)[C@@H](NC(=O)OC(C)(C)C)C(C)(C)C)C(=O)NS(=O)(=O)C1CC1 | IC50 | NS3/NS4A protease | BMS/H77C/J416S | Hepatitis C virus |  | <0.1 µM
CNC(=O)c1c(-c2ccc(F)cc2)oc2cc(N(Cc3cc(C)on3)S(C)(=O)=O)c(OC(C)C)cc12 | IC50 | Nonstructural protein 5B |  | Hepatitis C virus |  | ≤0.5 µM
CC[C@@H](C=O)NC(=O)[C@@H]1C[C@@H](OC(=O)Nc2ccc3ncsc3c2)CN1C(=O)[C@@H](NC(=O)[C@@H](NC(=O)c1cnccn1)C(C)C)C(C)C | Ki | NS3 protease |  | Hepatitis C virus |  | 1–100 µM
C=CCN(C(=O)CCCCC)c1cc(-c2ccccc2)sc1C(=O)O | IC50 | NS3 ATPase |  | Hepatitis C virus |  | 5–20 µM
O=C(O)c1ccc2c(c1)nc(-c1ccc3nc(-c4cccnc4)ccc3c1)n2C1CCCCC1 | inhibition | NS5B polymerase |  | Hepatitis C virus | 33 µM | 72.35%
CC[C@@H](C=O)NC(=O)[C@@H]1C[C@@H](NC(=O)NCc2ccccc2)CN1C(=O)[C@@H](NC(=O)[C@@H](NC(=O)c1cnccn1)C(C)C)C(C)C | Ki | NS3 protease |  | Hepatitis C virus |  | 1–100 µM
CNC(=O)c1c(-c2ccc(F)cc2)oc2cc(N3CCOCC3)c(OC(C)c3nccs3)cc12 | IC50 | Nonstructural protein 5B |  | Hepatitis C virus |  | ≤0.5 µM
C=C[C@@H]1C[C@]1(NC(=O)[C@@H]1C[C@@H](Oc2cc(-c3ccccc3)nc3cc(OC)ccc23)CN1C(=O)[C@@H](NC(=O)OCOC(C)=O)C(C)(C)C)C(=O)NS(=O)(=O)C1CC1 | IC50 | NS3/NS4A protease | BMS | Hepatitis C virus |  | <0.05 µM
O=C(O)c1ccc2c(c1)nc(-c1ccc3nc(C(=O)Nc4ccc(Cl)cc4)ccc3c1)n2C1CCCCC1 | inhibition | NS5B polymerase |  | Hepatitis C virus | 100 µM | 100%
COC(=O)c1cc(S(=O)(=O)Nc2cc(-c3ccccc3)sc2C(=O)O)oc1C | IC50 | NS3 ATPase |  | Hepatitis C virus |  | <5 µM
CNC(=O)c1c(-c2ccc(F)cc2)oc2cc(N3CCC3)c(OC(C)C)cc12 | IC50 | Nonstructural protein 5B |  | Hepatitis C virus |  | ≤0.5 µM
COc1cccc(NC(=O)Nc2cscc2-c2nc(C(=O)O)c(O)c(=O)[nH]2)c1 | IC50 | HCV polymerase |  | Hepatitis C virus |  | <25 µM
CN(C(=O)c1ccc(F)cc1F)c1cc(-c2ccccc2)sc1C(=O)O | IC50 | NS3 ATPase |  | Hepatitis C virus |  | 5–20 µM
CCNc1cc2oc(-c3ccc(F)cc3)c(C(=O)NC)c2c(Cl)c1OS(C)(=O)=O | IC50 | Nonstructural protein 5B |  | Hepatitis C virus |  | ≤0.5 µM
O=C(O)c1ccc(-c2ccc(Cl)cc2)c(-c2ccc3cc(-c4nc5cc(C(=O)O)ccc5n4C4CCCCC4)ccc3n2)c1 | inhibition | NS5B polymerase |  | Hepatitis C virus | 33 µM | 101%
COc1nc(Nc2ccc3[nH]ncc3c2)nc(NC2CC2)n1 | IC50 | DNA polymerase |  | Hepatitis B virus |  | 0.01–0.1 µg/mL
O=C(O)c1nc(-c2sccc2NC(=O)C(NCc2ccc3ccccc3c2)c2ccccc2)[nH]c(=O)c1O | IC50 | HCV polymerase |  | Hepatitis C virus |  | <25 µM
COc1ccc(-c2ccccc2OC)c(-c2ccc3cc(-c4nc5cc(C(=O)O)ccc5n4C4CCCCC4)ccc3n2)c1 | inhibition | NS5B polymerase |  | Hepatitis C virus | 100 µM | 101%
C=C[C@@H]1C[C@]1(NC(=O)[C@@H]1C[C@@H](Oc2cc(-c3ccccc3)nc3cc(OC)ccc23)CN1C(=O)[C@@H](NC(=O)CCl)C(C)(C)C)C(=O)NS(=O)(=O)C1CC1 | IC50 | NS3/NS4A protease | BMS | Hepatitis C virus |  | <0.05 µM
COc1ccc(-c2ccc(Cl)cc2)c(-c2ccc3cc(-c4nc5cc(C(=O)O)ccc5n4CC(C)C)ccc3n2)c1 | inhibition | NS5B polymerase |  | Hepatitis C virus | 100 µM | 98.15%
C=CCN(C(=O)Cc1ccc(F)cc1F)c1cc(-c2ccccc2)sc1C(=O)O | IC50 | NS3 ATPase |  | Hepatitis C virus |  | 5–20 µM
C=CC1CC1(NC(=O)[C@@H]1C[C@@H](OC(=O)Nc2nc(Cl)c(Cl)nc2C(=O)OC)CN1C(=O)[C@@H](NC(=O)OC(C)(C)C)C(C)(C)C)C(=O)NS(=O)(=O)C1CC1 | IC50 | NS3/NS4A protease | BMS/H77C/J416S | Hepatitis C virus |  | <0.1 µM

7 of the rows above, restated:

compound,measure,target,strain or isolate,organism,tested at,value
NC(C(=O)Nc1ccsc1-c1nc(C(=O)O)c(O)c(=O)[nH]1)c1ccc2ccccc2c1,IC50,HCV polymerase,,Hepatitis C virus,,<25 µM
CNC(=O)c1c(-c2ccc(F)cc2)oc2cc(N3CCOCC3)c(OC(C)c3nccs3)cc12,IC50,Nonstructural protein 5B,,Hepatitis C virus,,≤0.5 µM
C=C[C@@H]1C[C@]1(NC(=O)[C@@H]1C[C@@H](Oc2cc(-c3ccccc3)nc3cc(OC)ccc23)CN1C(=O)[C@H](CC(C)C)NC(=O)OC(C)(C)C)C(=O)NS(=O)(=O)C(F)(F)F,IC50,NS3/NS4A protease,BMS,Hepatitis C virus,,<5 µM
COc1nc(Nc2ccc3cn[nH]c3c2)nc(N2CCC(O)CC2)n1,inhibition,DNA polymerase,,Hepatitis B virus,0.1 µg/mL,37%
COc1nc(Nc2ccc3[nH]ncc3c2)nc(NC2CC2)n1,IC50,DNA polymerase,,Hepatitis B virus,,0.01–0.1 µg/mL
C=C[C@@H]1C[C@]1(NC(=O)[C@@H]1C[C@@H](Oc2cc(-c3ccccc3)nc3cc(OC)ccc23)CN1C(=O)[C@@H](NC(=O)OCCF)C(C)(C)C)C(=O)NS(=O)(=O)C1CC1,IC50,NS3/NS4A protease,BMS,Hepatitis C virus,,<0.05 µM
CC[C@@H](C=O)NC(=O)[C@@H]1C[C@@H](OCc2cccc(Oc3ccccc3)c2)CN1C(=O)[C@@H](NC(=O)[C@@H](NC(=O)c1cnccn1)C(C)C)C(C)C,Ki,NS3 protease,,Hepatitis C virus,,1–100 µM